A mixed list of measured activities; the numbers were collected in NIAID ChemDB.

Common to all: tests in culture; agent: Reovirus; strain: TYPE 1; cell line: VERO; measure: EC50

An empty or dashed field is not shown. Neighbouring rows are from separate reports. ECn is the concentration giving n% inhibition of infection, replication or growth.

structure,read by,result
CC=NC(=N)c1nc(-c2cccc(C)c2)n(Cc2ccccc2)n1,cytopathic effect,2 µg/mL
O=c1[nH]c(=O)n([C@@H]2C[C@H](CO)C[C@H]2CO)cc1I,,>100 µg/mL
CC=NC(=N)c1nc(-c2ccc(OC)cc2)n(Cc2ccccc2)n1,cytopathic effect,>10 µg/mL
CCOC(=O)C1=CN(COCCOC(C)=O)S(=O)(=O)N=C1N,,>400 µg/mL
CC=NC(=N)c1nc(-c2ccc(OC)cc2)n(C/C=C/c2ccccc2)n1,cytopathic effect,>100 µg/mL
O=c1[nH]c(=O)n(C2C[C@H](CO)[C@@H](CO)C2)cc1I,,>100 µg/mL
O=C1C=CN(COCCO)S(=O)(=O)N1COCCO,,>400 µg/mL
C=C(N=CC)c1nc(-c2cccc(C)c2)n(C2O[C@H](CO)[C@@H](O)[C@H](O)[C@H]2O)n1,cytopathic effect,>100 µg/mL
O=c1[nH]cnc2c1ncn2C1C[C@H](CO)[C@@H](CO)C1,,>100 µg/mL
Cc1ccn2c(C(SCCc3ccccc3)SCCc3ccccc3)cnc2c1,,>1000 µM
C=C(N=CC)c1nc(-c2ccccc2)n(C2O[C@H](CO)[C@@H](O)[C@H](O)[C@H]2O)n1,cytopathic effect,>200 µg/mL
CCOC(=O)C1=CN(COCCO)S(=O)(=O)NC1=O,,>400 µg/mL
Cc1cccn2c(C3OCCS3)cnc12,,>1000 µM
NC1=CC(N)=NS(=O)(=O)N1COCCO,,>400 µg/mL
Cc1ccn2c(C3SCCS3)cnc2c1,,>1000 µM
CC=NC(=N)c1nc(-c2ccc(OC)cc2)n(COCCO)n1,cytopathic effect,150 µg/mL
CC(=O)OCCOCN1C(=N)/C(=C(\C)O)C(N)=NS1(=O)=O,,>400 µg/mL
Cc1cccn2c(C3OCCO3)cnc12,,>1000 µM

Again, the opening 2 rows:

CC=NC(=N)c1nc(-c2cccc(C)c2)n(Cc2ccccc2)n1 ; read by: cytopathic effect ; result: 2 µg/mL
O=c1[nH]c(=O)n([C@@H]2C[C@H](CO)C[C@H]2CO)cc1I ; result: >100 µg/mL